Measured values reported in patent publication US8975247B2, “Methods and compositions of treating a flaviviridae family viral infection” (priority 2009, dated 2015).

Tests used:
[1] = tested on: HCV replicon reporter cell lines (Huh7); test: MTT assay for HCV replicon reporter cell lines (cell toxicity); conditions: read-out: Cell Viability EC50; MTT, replicon cells, 48 hours
[2] = format: in vivo
[3] = MTT assay for HCV replicon reporter cell lines (cell toxicity); conditions: human

Row | SMILES | EC50 [1] [µM] | EC50 at 48 h [3] [µM] | also measured
1 | Cc1cc2nc(CCC3CCNC3)n(Cc3ccc(Cl)cc3)c2cc1C (stereo not drawn) [EBP553] | > 25 |  | 
2 | Clc1ccc(Cn2c(CN3CCCC3)nc3ccccc32)cc1 [clemizole] |  |  | plasma levels of clemizole relative to EC50 for genotype 1 (>20 μM) and genotype 2 (8 μM) ([2]; 100 mg po BID, entire treatment period): below the EC50; theoretical levels of clemizole in the liver relative to EC50 for genotype 1b (>20 μM) ([2]; estimated to be 100× blood levels, at all times): below the EC50
3 | Clc1ccc(Cn2c(/C=C/C3CCN(CC4CCCCC4)C3)nc3cc(Br)ccc32)cc1 (stereo not drawn) [EBP933] |  | > 25 | 
4 | CN1CCC(/C=C/c2nc3cc(Br)ccc3n2Cc2ccc(Cl)cc2)C1 (stereo not drawn) [EBP772] | > 25 |  | 
5 | Cc1cc2nc(CCC3CCCN3C)n(Cc3ccc(Cl)cc3)c2cc1C (stereo not drawn) [EBP661] |  | > 25 | 
